Reference: PubChem BioAssay AID1224833 (University of Georgia, 2016)
Test: 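Human genes whose knock-down alters rotavirus replication in monkey cells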 (primary screen). Cell system: monkey MA104 kidney cells. Reagents: siRNA pool against human genes, 50 nM. Duration: 48 h knock-down before infection; read 24 h after infection. Conditions: infection with rotavirus strain RV3 two days after transfection; infectious dose for this stage not given. Measurement: 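z-score of rotavirus antigen signal per well, from a fluorescent immunoassay, relative to non-targeting control wells on the same plate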. Reading the numbers: z-score vs non-targeting control: higher = more rotavirus replication than with non-targeting control. Rule for the call: In these data the active calls have z-score vs non-targeting control at about -1 or lower, or at about 1 or higher. Calls: active = z-score beyond 1 either way; inactive = z-score within 1 of zero.
Here is one part, drawn at random, of about 12,000 reagents tested. Of all reagents, about 5,600 (46%) were called active. 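Active calls cover z-scores past 1 in both directions, so they include lowered as well as raised rotavirus replication.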 Entries without a mark were called inactive.

BPIFA2
- z-score vs non-targeting control: -1.56 (active)

IRF1
- z-score vs non-targeting control: 0.958

TOB2
- z-score vs non-targeting control: 0.889

KIAA0319L
- z-score vs non-targeting control: -0.427

AXIN1
- z-score vs non-targeting control: -0.219

IRF3
- z-score vs non-targeting control: -1.28 (active)

GPATCH1
- z-score vs non-targeting control: 0.034

GPC4
- z-score vs non-targeting control: -0.676

LY6G6F
- z-score vs non-targeting control: -0.929

C22orf39
- z-score vs non-targeting control: -2.08 (active)

TGDS
- z-score vs non-targeting control: 1.16 (active)

FGF14
- z-score vs non-targeting control: -2.73 (active)

SEC23B
- z-score vs non-targeting control: -1.33 (active)

S100A7
- z-score vs non-targeting control: -1.17 (active)

QPCT
- z-score vs non-targeting control: 1.57 (active)

YME1L1
- z-score vs non-targeting control: 1.09 (active)

KRT6A
- z-score vs non-targeting control: -0.0753

CNDP2
- z-score vs non-targeting control: 0.769

Targets listed so far whose gene name begins with G or g:
GPATCH1
- z-score vs non-targeting control: 0.034

GPC4
- z-score vs non-targeting control: -0.676

Additional reagents follow:
VPS50
- z-score vs non-targeting control: -0.549

KIF11
- z-score vs non-targeting control: -0.564

CLNK
- z-score vs non-targeting control: -1.11 (active)

CLXN
- z-score vs non-targeting control: 1.38 (active)

CWF19L1
- z-score vs non-targeting control: 0.168

NOTCH4
- z-score vs non-targeting control: -1.18 (active)

SPATA31A3
- z-score vs non-targeting control: 2.21 (active)

GRAMD1C
- z-score vs non-targeting control: -0.655

MED22
- z-score vs non-targeting control: -1.17 (active)

COPS4
- z-score vs non-targeting control: -0.0643

HPR
- z-score vs non-targeting control: 1.55 (active)

FABP5
- z-score vs non-targeting control: -0.96

TNIP3
- z-score vs non-targeting control: -1.89 (active)

NME9
- z-score vs non-targeting control: -0.819

B3GALNT1
- z-score vs non-targeting control: 1.5 (active)

RPL28
- z-score vs non-targeting control: 0.263

IL24
- z-score vs non-targeting control: -0.327

CYRIA
- z-score vs non-targeting control: -0.977

RPRML
- z-score vs non-targeting control: -1.05 (active)

FEV
- z-score vs non-targeting control: 0.443

CLEC2A
- z-score vs non-targeting control: -1.25 (active)

LIX1L
- z-score vs non-targeting control: 0.647

EMC1
- z-score vs non-targeting control: 2.14 (active)

MEIOC
- z-score vs non-targeting control: -0.506

JHY
- z-score vs non-targeting control: 0.51

RILPL2
- z-score vs non-targeting control: -0.817

SIX1
- z-score vs non-targeting control: 1.86 (active)

SUGT1
- z-score vs non-targeting control: -1.08 (active)

C7orf25
- z-score vs non-targeting control: -2.32 (active)
